# B1: Hyaluronate lyase (protein, UniProt Q59801 41-807, looked up)
# Hyaluronate lyase: DTNVQTPDYEKLRNTWLDVNYGYDKYDENNPDMKKKFDATEKEATNLLKEMKTESGRKYLWSGAETLETNSSHMTRTYRNIEKIAEAMRNPKTTLNTDENKKKVKDALEWLHKNAYGKEPDKKVKELSENFTKTTGKNTNLNWWDYEIGTPKSLTNTLILLNDQFSNEEKKKFTAPIKTFAPDSDKILSSVGKAELAKGGNLVDISKVKLLECIIEEDKDMMKKSIDSFNKVFTYVQDSATGKERNGFYKDGSYIDHQDVPYTGAYGVVLLEGISQMMPMIKETPFNDKTQNDTTLKSWIDDGFMPLIYKGEMMDLSRGRAISRENETSHSASATVMKSLLRLSDAMDDSTKAKYKKIVKSSVESDSSYKQNDYLNSYSDIDKMKSLMTDNSISKNGLTQQLKIYNDMDRVTYHNKDLDFAFGLSMTSKNVARYESINGENLKGWHTGAGMSYLYNSDVKHYHDNFWVTADMKRLSGTTTLDNEILKDTDDKKSSKTFVGGTKVDDQHASIGMDFENQDKTLTAKKSYFILNDKIVFLGTGIKSTDSSKNPVTTIENRKANGYTLYTDDKQTTNSDNQENNSVFLESTDTKKNIGYHFLNKPKITVKKESHTGKWKEINKSQKDTQKTDEYYEVTQKHSNSDNKYGYVLYPGLSKDVFKTKKDEVTVVKQEDDFHVVKDNESVWAGVNYSNSTQTFDINNTKVEVKAKGMFILKKKDDNTYECSFYNPESTNSASDIESKISMTGYSITNKNTSTSNESGVHFELTK
# notes: S. aureus antigenic protein
# What was measured:
# [1] = test system: purified IgGs from human sera; experiment: Ribosome display screening with purified human IgGs; assay type: binding; settings: screen D: ribosome display, LSA250/1 library with IC sera (1686)
# [2] = test system: antibodies in human serum; experiment: Bacterial surface display library screening by MACS with biotinylated human serum; assay type: binding; settings: screen F: LSA50/6 library in lamB with patient sera P1 (1105)
molecule,measurement,setting,value
B1,No. of selected clones per ORF and screen,[1],5
same,No. of selected clones per ORF and screen,[2],2
